Results on three sequences are retold here after patent US20100209933.

The target of series [1] is T1, MBP-p19-CBD fusion protein (Carnation Italian ringspot virus) (UniProt Q66104).
T1 sequence: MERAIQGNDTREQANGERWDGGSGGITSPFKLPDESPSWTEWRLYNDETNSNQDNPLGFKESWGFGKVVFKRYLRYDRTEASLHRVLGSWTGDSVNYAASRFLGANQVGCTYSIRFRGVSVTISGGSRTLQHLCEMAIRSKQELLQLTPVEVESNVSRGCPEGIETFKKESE
The experiment in a line: pull-down. The conditions noted are these: chitin magnetic beads, purified recombinant protein, protein details: N-terminal MBP, C-terminal chitin-binding domain, label: 5' 32P on probe.

For series [2], the target named is T1, MBP-p19-CBD fusion protein (Carnation Italian ringspot virus). The experiment in a line: EMSA. The conditions noted are these: 20 mM Tris, 100 mM NaCl, 1 mM EDTA, 1 mM TCEP, pH 7; room temperature; purified recombinant protein; protein details: N-terminal MBP, C-terminal chitin-binding domain; label: FAM (p113), non-radioactive 5' P (p114); variant of miR122a/RNA probe duplex. In general terms: Mobility shift assays separate free from complexed probe on a gel.

The exact form of at least one protein or probe is not confirmed. Where a protein sequence is shown, tags need not be part of it.

Consider “UGAGGUAGUAGGUUGUAUAGUU / CUAUACAACCUACUACCUCAAA [let-7a/RNA probe duplex]”, for which the binding result in series [1] (same buffer, JURKAT total RNA) is listed as “binds”.
On to “UGGAGUGUGACAAUGGUGUUUG / AACACCAUUGUCACACUCCAUA [miR122a/RNA probe duplex]”, for which, in series [1] (20 mM Tris, 100 mM NaCl, 1 mM EDTA, 1 mM TCEP, pH 7, BSA, room temperature), the binding result is “binds”.
As for “UGGAGUGUGACAAUGGUGUUUG / AACACCAUUGUCACACUCCAUA [miR122a/polyA-tail RNA probe]”, the binding result in series [2] is “binds”.
